# Source: article PMC9388137, “Reversible structural changes in the influenza hemagglutinin precursor at membrane fusion pH” (2022)
# Target: X-31 HA0 R329Q mutant, foldon and His tag removed with trypsin (influenza A virus X-31)
# Experiment: SEC
substance,measurement,value
"X-31 HA0 R329Q mutant, foldon and His tag removed with trypsin (natural protein)",stoichiometry N,3
